{
  "source": "paper PMC10653817",
  "about": "“Cryo-EM structures of African swine fever virus topoisomerase” (2023)",
  "test_system": "African swine fever virus (ASFV) type II topoisomerase P1192R, African swine fever virus, Q00942 1-1192",
  "assay": "cryo-EM structure",
  "data": [
    {"substance": "African swine fever virus (ASFV) type II topoisomerase P1192R", "values": [
      {"measurement": "stoichiometry N", "value": 2}
    ]}
  ]
}
